Pooled drug test results. Numbers come from NIAID ChemDB, via PubChem.

All rows: cytotoxicity tests; cells: MRC-5; measure: CC50

CCn is the concentration with n% toxicity to the cells. Conditions beyond the fields shown may differ between rows. Two numbers with a dash give a range or band. An empty or dashed field is not shown.

SMILES,read by,result
CCOC(=O)C1=NN(c2ccc(Cl)cc2)C2C3N(c4ccc(Cl)cc4)N=C(C(=O)OCC)N3c3ccccc3N12,resazurin,48.5 µM
O=C1CCC(N2C(=O)c3ccccc3C2=O)C(=O)N1,,>10 µg/mL
CCCCCCCCCCCCCCCCOCCCOP(=O)(O)CCCOCn1cnc2c(N)nc(N)nc21,,47 µM
Nc1nc2c(ncn2COCCO)c(=O)[nH]1,,1575 µM
O=S1(=O)N=C(OCc2ccc(Cl)cc2)C=CN1Cc1ccc(Cl)cc1,,25.1 µM
CCO/N=C/c1ccc(OCCC2CCN(c3ccc(C)nn3)CC2)c(C)c1C,neutral red,>0.1 µg/mL
O=C1c2sc3ccccc3c2N(Cc2ccc(Cl)cc2)S(=O)(=O)N1Cc1ccccc1,,53.3 µM
Nc1nc2c(ccn2[C@@H]2C[C@H](CO)[C@@H](O)[C@@H]2O)c(=O)[nH]1,,>100 µg/mL
O=C(NCc1cccs1)c1nn2c(c1Cl)N[C@H](c1ccco1)C[C@@H]2C(F)(F)F,ATP,>100 µM
Cc1cc(C=O)cc(C)c1Oc1cc(Nc2ccc(C#N)cc2)nc2ccccc12,MTT,69.8 µM
Nc1nc2c(ncn2COC(CO)COP(=O)(O)O)c(=O)[nH]1,,>1000 µM
CC(COCP(=O)(O)O)n1cnc2c(=O)[nH]c(N)nc21,XTT,>330 µM
CCCCCCCC/C=C\CCCCCCCCOCCOP(=O)(O)CCCOCn1cnc2c(=O)[nH]c(N)nc21,,30 µM
CCOP(=O)(O)CCCOCn1cnc2c(=O)[nH]c(N)nc21,visual reading,>3000 µM
Cc1ccc(N2CCC(CCOc3ccc4oc(C)nc4c3)CC2)nn1,,>1 µg/mL
c1csc(-c2cc3ccccn3c2)c1,MTT,90 µM
CCCCCCCCCCCCCCCCOCCCOP(=O)(O)OCC(CO)OCn1cnc2c(=O)[nH]c(N)nc21,,>158 µM
Nc1nc(=S)n([C@@H]2O[C@H](CO)[C@@H](O)[C@@H]2O)cc1F,,>361 µM
Nc1nc2c(sc(=O)n2C/C=C\CO)c(=O)[nH]1,,>300 µM
CCO/N=C/c1ccc(OCCC2CCN(c3nc(C(=O)OCC)cs3)CC2)cc1,neutral red,>0.5 µg/mL
Cc1cn([C@H]2C[C@H](O)[C@@H](CO)O2)c(=S)[nH]c1=O,,>776 µM
Clc1ccc(-c2cc3ccccn3c2)cc1Cl,MTT,391 µM
Cc1cncc2ccc(C(=O)NCc3ccccc3OC(C)C)nc12,neutral red,2.4 µg/mL
Nc1nc2c(ncn2COC(CO)CO)c(=O)[nH]1,MTT,>200 µg/mL
COc1cc2oc(-c3ccccc3)cc(=O)c2c(OC)c1OC,,37 µg/mL
Cc1cn([C@H]2C[C@H](N=C(N)NC#N)[C@@H](CO)O2)c(=O)[nH]c1=O,,>100 µM
C[C@H]1OC[C@@H](n2c(Br)nc3cc(Cl)c(Cl)cc32)[C@@H]1O,,100 µM
O=[N+]([O-])c1ccc(COC2=NS(=O)(=O)N(Cc3ccc([N+](=O)[O-])cc3)c3ccccc32)cc1,,>53 µM
CC(C)Nc1nc2cc(Cl)c(Cl)cc2n1[C@@H]1CO[C@H](CO)[C@H]1O,,32 µM
CCO/N=C(\C)c1cc(OC)c(OCCC2CCN(c3ccc(Cl)nn3)CC2)c(OC)c1,visual reading,>50 µg/mL
Nc1nc2c(ncn2C[C@@H]2CC[C@@H](P(=O)(O)O)O2)c(=O)[nH]1,,28 µg/mL
Cc1cn([C@H]2C[C@H](NC#N)[C@@H](CO)O2)c(=O)[nH]c1=O,,>100 µM
CC(=O)c1c(-c2ccc(Cl)c(Cl)c2)cc2ccccn12,MTT,162 µM
OC[C@@H]1C[C@H](n2c(Br)nc3cc(Cl)c(Cl)cc32)CO1,,100 µM
CCc1nn(CCO)c(CC)c1Oc1cc(C#N)cc(C#N)c1,,>64 µM
Nc1nc2c(ncn2COCCCP(=O)([O-])O)c(=O)[nH]1,,225 µM
Nc1nc2c(ncn2COC(CO)CO)c(=O)[nH]1,,>300 µM
CCCO/N=C/c1ccc(OCCC2CCN(c3ccc(Cl)nn3)CC2)cc1,neutral red,>0.1 µg/mL
Nc1ccn([C@@H]2O[C@H](CO)[C@@H](O)[C@H]2O)c(=S)n1,,>386 µM
O=C(OC[C@H]1O[C@@H](OC(=O)c2cc(O)c(O)c(O)c2)[C@H](OC(=O)c2cc(O)c(O)c(O)c2)[C@@H](OC(=O)c2cc(O)c(O)c(O)c2)[C@@H]1OC(=O)c1cc(O)c(O)c(O)c1)c1cc(O)c(O)c(O)c1,XTT,745 µM
Nc1nc(N)c2ncn(COCCCP(=O)(O)O)c2n1,,69 µM
O=C1c2ccccc2N(Cc2ccccc2)S(=O)(=O)N1Cc1cc(Cl)c(Cl)c(Cl)c1Cl,,>60 µM
Cc1cc(C)n2cc(-c3ccccc3)cc2c1,MTT,>500 µM
O=S1(=O)N=C(OCc2ccc(Cl)c(Cl)c2)c2ccccc2N1Cc1ccc(Cl)c(Cl)c1,,>48 µM
COc1ncnc2c1ccn2[C@@H]1O[C@H](CO)[C@@H](O)[C@H]1O,MTT,>100 µg/mL
Nc1nc2c(ncn2C[C@]2(CO)C[C@H]2CO)c(=O)[nH]1,,29 µg/mL
c1coc(-c2cc3ccccn3c2)c1,MTT,>500 µM
Nc1nc2c(ncn2CO[C@H](CO)CCP(=O)(O)O)c(=O)[nH]1,visual reading,1023 µM
Brc1ccc(-c2cc3ccccn3c2)cc1,MTT,>500 µM
CC(C)NCCNc1ccnc2cc(Cl)ccc12,fluorescence,0.064 µM
Cc1ccc(CN2c3ccccc3C(=O)N(Cc3ccccc3)S2(=O)=O)cc1,,>63 µM
CC(=O)O[C@@H]1C2C(C)(C)C(=O)C=C[C@]2(C)C2CC[C@@]3(C)[C@H](c4ccoc4)OC(=O)[C@H]4O[C@]43C2[C@H]1OC(C)=O,resazurin,>185 µM
Nc1ccn(C[C@@H](CO)OCP(=O)(O)O)c(=O)n1,,>100 µg/mL
C/C=C(\COC(=O)C(C)(C)C)C(CCN=[N+]=[N-])[C@@](C)(O)c1cc2ccccc2[nH]1,MTT,54 µg/mL
NNC(=O)c1ccncc1,MTS,>25 µM
Nc1nc2c(ncn2COC(CO)CO)c(=O)[nH]1,MTT,>250 µM
O=C1C=CN(Cc2ccc(Cl)cc2)S(=O)(=O)N1Cc1ccc(Cl)cc1,,25.1 µM
Cc1cn([C@H]2C[C@H](N=C(N)N)[C@@H](CO)O2)c(=O)[nH]c1=O,,>100 µM
Cc1ccc(N2CCC(CCOc3ccc4nc(C)oc4c3)CC2)nn1,,>1 µg/mL
CO/N=C/c1ccc(OCCC2CCN(c3ccc(C)nn3)CC2)c(C)c1,neutral red,>0.1 µg/mL
CC#Cc1cn([C@@H]2O[C@H](CO)[C@@H](O)[C@@H]2O)c(=O)[nH]c1=O,,>500 µM
Cc1cn([C@@H]2O[C@H](CO)[C@@H](O)[C@@H]2O)c(=S)nc1N,,>275.1 µM
N#CCO/N=C/c1ccc(OCCC2CCN(c3ccc(Cl)nn3)CC2)cc1,visual reading,0.6 µg/mL
c1ccc(-c2cc3ccccn3c2)cc1,MTT,100–500 µM
CCOP(=O)(O)CCC(O)CCOCn1cnc2c(=O)[nH]c(N)nc21,visual reading,>2000 µM
CO/N=C/c1c(C)cc(OCCC2CCN(c3ccc(C)nn3)CC2)cc1C,neutral red,>0.1 µg/mL
OC[C@H]1O[C@@H](n2c(Br)nc3cc(Cl)c(Cl)cc32)[C@H](O)[C@@H]1O,,100 µM

The first 6 rows once more:

SMILES	read by	result
CCOC(=O)C1=NN(c2ccc(Cl)cc2)C2C3N(c4ccc(Cl)cc4)N=C(C(=O)OCC)N3c3ccccc3N12	resazurin	48.5 µM
O=C1CCC(N2C(=O)c3ccccc3C2=O)C(=O)N1		>10 µg/mL
CCCCCCCCCCCCCCCCOCCCOP(=O)(O)CCCOCn1cnc2c(N)nc(N)nc21		47 µM
Nc1nc2c(ncn2COCCO)c(=O)[nH]1		1575 µM
O=S1(=O)N=C(OCc2ccc(Cl)cc2)C=CN1Cc1ccc(Cl)cc1		25.1 µM
CCO/N=C/c1ccc(OCCC2CCN(c3ccc(C)nn3)CC2)c(C)c1C	neutral red	>0.1 µg/mL